“Also recorded” adds a separate entry of the source. Marks after values point to notes of the source that are not given here.
Experiments:
XuaF = assay: Enzyme activity of XuaF on AXOS and XOS (HPAEC-PAD); assay type: biochemical, Ruminiclostridium cellulolyticum; conditions: ? = product not identified with certainty
Protocol: (§1) XuaD, E, F, G (0.01 to 1 µM) were tested with different AXOS and/or XOS at 1 mM with incubation times varying from 5 min to 24 h. Enzymes (10 nM) were incubated at 37 °C for 5 min, kinetic parameters of XuaD were determined with both A^2,3XX and A^2XX, with sugar concentration varying from 0.05 to 8 mM, and XuaE with A^2,3XX with sugar concentration varying from 0.05 to 1 mM (at least 9 concentration point). Substrates and released products were quantified by high performance anion exchange chromatography coupled with pulsed amperometric detection on an ICS-3000 using a PA1 column (Thermo Scientific). Sugars were eluted with the buffers 0.1 M NaOH and 0.5 M sodium acetate + 0.1 M NaOH as the eluants A and B, respectively, using the multistep procedure as follows: isochratic separation (5 min, 95% A + 5% B), separation gradient (8 min, 10–37% B), column wash (2 min, 99% B), and subsequent column equilibration (2.5 min, 95% A + 5% B).

XuaG = assay: Enzyme activity of XuaG on AXOS and XOS (HPAEC-PAD); assay type: biochemical, Ruminiclostridium cellulolyticum; conditions: superscript a = transglycosylation was detected
Protocol: as §1

Row | SMILES | Products released by XuaF (XuaF) | Products released by XuaG (XuaG)
1 | OC[C@@H]1O[C@@H](O[C@H]2[C@H](O[C@@H]3CO[C@@H](O[C@@H]4COC(O)[C@H](O)[C@H]4O)[C@H](O)[C@H]3O)OC[C@@H](O)[C@@H]2O)[C@H](O)[C@H]1O (some centres unmarked) [A^2XX] | Products: Xyl, A^2X? | 
2 | OC1OC[C@@H](O[C@@H]2OC[C@@H](O[C@@H]3OC[C@@H](O)[C@H](O)[C@H]3O)[C@H](O)[C@H]2O)[C@H](O)[C@H]1O (some centres unmarked) [X3, xylotriose] | Products: Xyl, X2 | Products: Xyl, X2^a
3 | OC1OC[C@@H](O[C@@H]2OC[C@@H](O[C@@H]3OC[C@@H](O[C@@H]4OC[C@@H](O)[C@H](O)[C@H]4O)[C@H](O)[C@H]3O)[C@H](O)[C@H]2O)[C@H](O)[C@H]1O (some centres unmarked) [X4] | Products: Xyl, X3, X2 | Products: Xyl, X3, X2^a
4 | OC1OC[C@@H](O[C@@H]2OC[C@@H](O[C@@H]3OC[C@@H](O[C@@H]4OC[C@@H](O[C@@H]5OC[C@@H](O)[C@H](O)[C@H]5O)[C@H](O)[C@H]4O)[C@H](O)[C@H]3O)[C@H](O)[C@H]2O)[C@H](O)[C@H]1O (some centres unmarked) [X5] | Products: Xyl, X4, X3 | Products: Xyl, X4, X3, X2^a
5 | OC[C@@H]1O[C@@H](O[C@@H]2[C@@H](O[C@@H]3O[C@@H](CO)[C@H](O)[C@H]3O)[C@H](O[C@@H]3CO[C@@H](O[C@@H]4COC(O)[C@H](O)[C@H]4O)[C@H](O)[C@H]3O)OC[C@H]2O[C@@H]2OC[C@@H](O)[C@H](O)[C@H]2O)[C@H](O)[C@H]1O (some centres unmarked) [XA^2,3XX] | Products: Xyl, XA^2,3X ? | xylose and A^2,3XX; also recorded: Products: Xyl, A^2,3XX^a
6 | OC[C@@H]1O[C@@H](O[C@@H]2[C@@H](O)[C@H](O[C@@H]3CO[C@@H](O[C@@H]4COC(O)[C@H](O)[C@H]4O)[C@H](O)[C@H]3O)OC[C@H]2O[C@@H]2OC[C@@H](O)[C@H](O)[C@H]2O)[C@H](O)[C@H]1O (some centres unmarked) [XA^3XX] | Products: Xyl, XA^3X ? | Products: Xyl, A^3XX?^a

Reference: article PMC9675976, “Selfish uptake versus extracellular arabinoxylan degradation in the primary degrader Ruminiclostridium cellulolyticum, a new string to its bow” (Biotechnology for Biofuels and Bioproducts, 2022)
